The values that follow are results of earlier work, collected in article PMC10384183, “Silver(I) and Copper(II) 1,10-Phenanthroline-5,6-dione Complexes as Promising Antivirulence Strategy against Leishmania: Focus on Gp63 (Leishmanolysin)” (Tropical Medicine and Infectious Disease, 2023).

The subject of the data set is L. amazonensis amastigotes. Also noted: method as in PMID 36678418. To be noted: Leishmania amastigotes compared to THP-1 macrophage cells; cited from earlier work.

Regarding `O=C1C(=O)c2cccnc2-c2ncccc21.O=C1C(=O)c2cccnc2-c2ncccc21.[Ag+].[O-][Cl+3]([O-])([O-])[O-]` [Ag-phendione, [Ag(phendione)2]ClO4], the SI selectivity index is recorded as 42.0.

With `O.O.O.O.O=C1C(=O)c2cccnc2-c2ncccc21.O=C1C(=O)c2cccnc2-c2ncccc21.O=C1C(=O)c2cccnc2-c2ncccc21.[Cu+2].[O-][Cl+3]([O-])([O-])[O-].[O-][Cl+3]([O-])([O-])[O-]` [Cu-phendione, [Cu(phendione)3](ClO4)2.4H2O], the SI selectivity index was 43.4.
